The values below are quoted from earlier work in paper PMC9054008 (Science Advances, 2022).

Sequences of proteins named here, by UniProt entry; tags and fusion partners are left off.
UniProt P14434, whole entry: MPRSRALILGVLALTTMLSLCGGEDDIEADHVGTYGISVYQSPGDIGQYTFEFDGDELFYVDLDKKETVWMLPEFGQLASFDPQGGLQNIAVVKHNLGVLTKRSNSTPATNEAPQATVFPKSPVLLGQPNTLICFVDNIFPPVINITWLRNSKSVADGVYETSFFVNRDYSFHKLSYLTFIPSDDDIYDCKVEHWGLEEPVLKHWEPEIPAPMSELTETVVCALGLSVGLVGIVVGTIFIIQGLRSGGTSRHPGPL
UniProt P14483, whole entry: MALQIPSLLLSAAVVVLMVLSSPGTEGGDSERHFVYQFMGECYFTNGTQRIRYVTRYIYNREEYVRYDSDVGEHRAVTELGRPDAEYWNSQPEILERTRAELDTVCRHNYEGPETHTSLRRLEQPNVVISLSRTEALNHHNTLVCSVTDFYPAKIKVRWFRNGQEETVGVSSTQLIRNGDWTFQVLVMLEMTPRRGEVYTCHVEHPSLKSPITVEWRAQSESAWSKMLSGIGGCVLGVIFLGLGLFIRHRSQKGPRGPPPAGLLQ

Broadly, the IC50 is the concentration that inhibits the measured activity by half.

The target of this data set is I-Ab (Mus musculus, UniProt P14434+P14483). The settings on record: cited from earlier work.

In the case of DQEYHRLIHSLSKTS, the IC50 is 0.964 µM. For ELLDQSDVKEPGVSR, the IC50 was 9.97 µM.

Regarding GLVSQLSVLSSITNI, the IC50 was 5.28 µM. For IEYAKLYVLSPILAE, the IC50 is 0.282 µM. In the case of IIKYNRRLAKSIICE, the IC50 was 8.39 µM. LKAEAQMSIQLINKA: the IC50 was 9.06 µM. In the case of LMIAHRVLLSSILES, the IC50 is 7.16 µM. For SISKRAYMATTILEM, the IC50 was 0.0319 µM.

As to TSAFNKKTFDHTLMS, the IC50 was 10 µM.

In the case of VSLIAIIKGIVNLYK, the IC50 was 7.74 µM. As for VVPDGYKLTGNVLIL, the IC50 is 6.52 µM. With YDMFNLLLMKPLGIE, the IC50 was 6.75 µM.
